Experimental data taken from article PMC3112458, “Marked increase in etravirine and saquinavir plasma concentrations during atovaquone/proguanil prophylaxis” (Malaria Journal, 2011).

Experiment: 12 hour-PK of anti-retrovirals before and at day 20 of atovaquone/proguanil prophylaxis (HPLC-UV, plasma)
Assay type: in vivo, human
Procedure: In September 2009, the patient planned to spend a two-week holiday in Kenya. […] Standard malaria prophylaxis with atovaquone/proguanil fixed-dose combination (250/100 mg) was prescribed: one tablet daily starting two days before the journey and ending the treatment seven days after return to Italy. A 12 hour-PK of anti-retrovirals was performed before starting prophylaxis with atovaquone/proguanil (Figure 1). The samples were collected in fasting status following this order: the first sample 12 hours after the last dose of anti-retrovirals (pre-dose); the second sample one hour after breakfast and anti-retrovirals consumption; the following samples at 2, 4, 6 and 12 hours post anti-retrovirals' intake. The second PK for the determination of anti-retrovirals' plasma concentrations during atovaquone/proguanil prophylaxis was collected at day 20 on prophylaxis with the same timing plan (Figure 1). In order to avoid any food interference with the PK results, the same diet was administered in both the PK sampling days.

## maraviroc
PK profiles, day 20 of atovaquone/proguanil prophylaxis
  Tmax and Cmax in post-prophylaxis versus pre-prophylaxis: earlier
plasma, one HIV patient, day 20 of atovaquone/proguanil 250/100 mg daily vs before prophylaxis
  Δ AUC0-12h (during prophylaxis AUC minus pre-prophylaxis AUC): -9%
